Results from article PMC11065945.

Test system: N[C@H](COP(=O)(O)O)Cc1c[nH]cn1
Assay: purified protein
Conditions: pH 8.0

## Rv2231c (Mycobacterium tuberculosis H37Rv)
  Km: 0.6 ± 0.05 mM
